From patent publication US11337988B2, “Use of ouabain antagonists to inhibit viral infection” (priority 2018, dated 2022)

System: RSV-GFP
Format: cell-based, human respiratory syncytial virus (RSV)
Conditions: A549 pre-treated overnight, 25 nM ouabain or 20 μM PST2238, RSV-GFP MOI=1, harvested 24 h p.i.

Structure (SMILES)	reduction of virus yield [log10]
C[C@]12CC[C@H](O)C[C@H]1CC[C@@H]1[C@@H]2CC[C@]2(C)[C@@](O)(c3ccoc3)CC[C@]12O [PST2238, (3β,5β,14β)-21,23-Epoxy-24-norchola-20,22-diene-3,14,17-triol]	2.0
C[C@@H]1O[C@@H](O[C@H]2C[C@@H](O)[C@]3(CO)[C@@H]4[C@@H](CC[C@]3(O)C2)[C@@]2(O)CCC(C3=CC(=O)OC3)[C@@]2(C)C[C@@H]4O)[C@H](O)[C@H](O)[C@H]1O (stereo partly drawn) [ouabain, (1β,3β,5β,11α)-3-[(6-Deoxy-α-L-mannopyranosyl)oxy]-1,5,11,14,19-pentahydroxycard-20(22)-enolide]	~3.0
